For the assay, the system named is Ross River Virus (strain T48). The settings on record: mice infected intravenously with 10^6 TCID50/ml live RRV; antigen dose at which 50% showed no viremia.

Regarding Formalin, the “PD50 Week 6” value is 78 ng.

For the origin of these results see patent US8703467B2 (priority 2004, dated 2014).
